Compound potency records, mixed from different reports. Data source: NIAID ChemDB in PubChem.

Shared fields: growth or infection tests; agent: Mycobacterium tuberculosis

Percent inhibition refers to the dose given; in toxicity tests it is the harm to the cells. MIC bound: limit read from a one-dose screen. A number after MIC or MFC names an inhibition level or a share of isolates. ECn is the concentration giving n% inhibition of infection, replication or growth. Lines come from different laboratories, so protocols vary. Blank or dashed fields: not listed here.

smiles,endpoint,strain,changes,dose,method,result
C[C@@H]1[C@H]2C[C@@H](C[C@H]1NCCNCCC(c1ccccc1)c1ccccc1)C2(C)C,MIC,-,-,-,-,12.5 µM
CCOC(=O)c1ccc2c(c1)nc(-c1ccc(O)c(OC)c1)n2CCN1CCCOC1,EC90,H37Rv,-,-,resazurin / fluorescence,55.82 µM
C=CCOc1cc2oc3cc(O)c(CCC(C)C)c(O)c3c(=O)c2c(CCC(C)C)c1OC,MIC,M-3,-,-,resazurin,3.12 µg/mL
NC(=O)CS(=O)CC(N)C(=O)O,inhibition,H37Rv,-,6.25 µg/mL,resazurin,0%
CCOc1ccc(C(=O)NN)cc1,MIC,-,-,-,-,40 µg/mL
Nc1cc(Br)cc2c1nc(NCCO)c1ccccc12,MIC bound,H37Rv,-,-,BACTEC,>12.5 µg/mL
CCOC(=O)c1ccc2c(c1)nc(-c1ccc(Br)cc1)n2CCN1CCCOC1,MIC,H37Rv,-,-,resazurin / fluorescence,>100 µM
Brc1ccccc1-c1nnc2sc(-c3ccncc3)nn12,MIC,18b,-,-,resazurin,8 µg/mL
CCCCCCCCCCCNCCNCc1cccc(F)c1,MIC,-,-,-,-,50 µM
COc1ccc2c(c1)/C(=N/OC(=O)c1ccc(OC)c([N+](=O)[O-])c1)CCC2,MIC,Clinical isolate,-,-,resazurin,2 µg/mL
COc1ccc(Sc2ncnc3nc[nH]c23)c(OC)c1,MIC90,H37Rv,-,-,-,>6.25 µg/mL
COc1ccc(/C=c2/sc3nc(-c4ccccc4)nn3c2=O)cc1,inhibition,H37Rv,-,12.5 µg/mL,BACTEC,0%
COc1ccc(Sc2ncccn2)cc1OC,inhibition,H37Rv,-,6.25 µg/mL,-,0%
CC(=O)NNc1nc(C)c(C(=O)C=Cc2ccc(Cl)c(Cl)c2)s1,MIC bound,H37Rv,-,-,resazurin,>6.25 µg/mL
CCOC(=O)c1ccc2nc(-c3ccc(N4CCOCC4)cc3)[nH]c2c1,MIC,H37Rv,-,-,resazurin / fluorescence,>100 µM
COc1c(N2CCNC(C)C2)c(F)cc2c(=O)c(C(=O)O)cn(C3CC3)c12,MIC90,27 strains (levofloxacin-susceptible),-,-,-,0.2 µg/mL
COc1cc(CSc2nc(=O)[nH]c3nc[nH]c23)cc(OC)c1,MIC,H37Ra,-,-,-,>12.8 µg/mL
CO[C@H]1/C=C/O[C@@]2(C)Oc3c(C)c(O)c4c(O)c(c(/C=N/N5CCN(C6CCCC6)CC5)c(O)c4c3C2=O)NC(=O)/C(C)=C\C=C\[C@H](C)[C@H](O)[C@@H](C)[C@@H](O)[C@@H](C)[C@H](OC(C)=O)[C@@H]1C,MIC,Atencio,-,-,-,0.03 µg/mL
O=C1c2cccnc2-c2nccc3c2c1nc1ccccc13,inhibition,H37Rv,-,12.5 µg/mL,BACTEC,99%
CC(N[C@H]1CS(=O)(=O)C[C@@H]1S(=O)(=O)c1ccc(F)cc1)c1ccccc1,MIC,Clinical isolate,-,-,resazurin,1 µg/mL
NCC[C@H](O)C(=O)N[C@@H]1C[C@H](N)[C@@H](O[C@H]2O[C@H](CN)[C@@H](O)[C@H](O)[C@H]2O)[C@H](O)[C@H]1O[C@H]1O[C@H](CO)[C@@H](O)[C@H](N)[C@H]1O,MIC,MDR1,-,-,broth dilution / resazurin,4 µg/mL
C[C@H]1COc2c(N3CCN(C)CC3)c(F)cc3c(=O)c(C(=O)O)cn1c23,MIC90,23 strains (rifampin- isoniazid-susceptible),-,-,-,0.39 µg/mL
C[C@@H](NCCNC[C@@H]1CC[C@H]2C[C@@H]1C2(C)C)C1CCCCC1,MIC,-,-,-,-,50 µM
O=C(/C=C/c1ccncc1)c1ccco1,MIC,H37Rv,-,-,-,>12.5 µg/mL
CO[C@H]1/C=C/O[C@@]2(C)Oc3c(C)c(O)c4c(O)c(c5c(c4c3C2=O)NC2(CCN(CC(C)C)CC2)N=5)=NC(=O)/C(C)=C\C=C\[C@H](C)[C@H](O)[C@@H](C)[C@@H](O)[C@@H](C)[C@H](OC(C)=O)[C@@H]1C,MIC,Strain 152-162 (H526R/P/Y/D),-,-,-,48 µg/mL
CC(C)c1ccc2c(c1)CC[C@H]1[C@](C)(CNCCNCCC(c3ccccc3)c3ccccc3)CCC[C@]21C,MIC,-,-,-,-,12.5 µM
O=c1[nH][nH]c(=O)c2c([N+](=O)[O-])cccc12,MIC,-,-,-,-,>200 µg/mL
CCOC(=O)c1ccc2c(c1)nc(-c1ccc(C(=O)O)cc1)n2CCN1CCCOC1,EC90,H37Rv,-,-,resazurin / fluorescence,>100 µM
COc1cc2oc3cc(O)c(CCC(C)C)c(O)c3c(=O)c2c(CCC(C)C)c1OC,MIC,M11,-,-,resazurin,3.12 µg/mL
O=C(O)c1cc2ccc3c(c2oc1=O)CN(c1ccc(Cl)cc1)CO3,MIC,18b,-,-,resazurin,4 µg/mL
O=C(/C=C/c1ccccc1)c1cccc(Br)c1O,MIC,H37Rv,-,-,-,>12.5 µg/mL
Cc1occc1C(=S)Nc1ccc(Cl)c(C(=O)OCC(C)C)c1,inhibition,H37Rv,-,12.5 µg/mL,BACTEC,42%
Cc1ccccc1CSc1ccccn1,MIC90,H37Rv,-,-,-,>6.25 µg/mL
NNC(=O)c1ccncc1,MIC,M11,-,-,resazurin,2 µg/mL
O=C(N/N=C/c1ccccc1Cl)c1ccccc1,MIC,-,-,-,-,10 µg/mL
CC(C)CC(C)NCCNCCC(c1ccccc1)c1ccccc1,MIC,-,-,-,-,6.25 µM
O=[N+]([O-])c1ccccc1N=Nc1c(O)[nH]c2c(Cl)cc(Cl)cc12,inhibition,H37Rv,-,6.25 µg/mL,resazurin,3%
COc1ccc2c(=O)cc(-c3cccc([N+](=O)[O-])c3)oc2c1,inhibition,H37Rv,-,12.5 µg/mL,-,0%
CCC[CH2][Sn]1([CH2]CCC)[O]C(=O)CN=Cc2ccccc2[O]1,inhibition,H37Rv,-,12.5 µg/mL,BACTEC,87%
Cc1cccc(Sc2ccncc2)c1,MIC90,H37Rv,-,-,-,>6.25 µg/mL
CC(C)c1ccc2c(c1)CC[C@H]1[C@](C)(CNCCNCC(O)CO)CCC[C@]21C,MIC,-,-,-,-,50 µM
NNC(=O)c1ccc([N+](=O)[O-])cc1,MIC,-,-,-,-,100 µg/mL
CCCCSc1nc(Cl)nc2nc[nH]c12,MIC,H37Ra,-,-,-,>12.8 µg/mL
CCOC(=O)c1ccc2nc(-c3ccc(C(=O)O)cc3)[nH]c2c1,MIC,H37Rv,-,-,resazurin / fluorescence,>100 µM
NCC(=O)NN,MIC,-,-,-,-,<40 µg/mL
CCOc1cc2oc3cc(O)c(CCC(C)C)c(O)c3c(=O)c2c(CCC(C)C)c1OC,MIC,M22,-,-,resazurin,3.12 µg/mL
C[C@@H]1CN(c2c(F)c(N)c3c(=O)c(C(=O)O)cn(C4CC4)c3c2F)C[C@H](C)N1,MIC,891207,-,-,-,0.1 µg/mL
COc1ccc(-c2oc3ccccc3c(=O)c2Br)cc1,MIC,H37Rv,-,-,-,>12.5 µg/mL
CCCOc1cc2oc3cc(O)c(CCC(C)C)c(O)c3c(=O)c2c(CCC(C)C)c1OC,MIC,M-4,MDR,-,resazurin,3.12 µg/mL
CCCC(C)C(=O)Nc1nc2c(s1)C(=O)CC(C)(C)C2,MIC,18b,-,-,resazurin,2 µg/mL
O=c1cc(-c2ccc(I)cc2)oc2ccccc12,MIC,H37Rv,-,-,-,>12.5 µg/mL
COc1ccc(CCNCCNCCc2ccc(Cl)cc2Cl)cc1OC,MIC,-,-,-,-,50 µM
CO[C@H]1/C=C/O[C@@]2(C)Oc3c(C)c(OC(C)=O)c4c(c3C2=O)C(=O)C=C(NC(=O)/C(C)=C\C=C\[C@H](C)[C@H](O)[C@@H](C)[C@@H](O)[C@@H](C)[C@H](OC(C)=O)[C@@H]1C)C4=O,MIC,INH-r,-,-,-,0.03 µg/mL
CCOC(=O)c1ccc2nc(-c3ccc(O)c(OC)c3)[nH]c2c1,EC90,H37Rv,-,-,resazurin / fluorescence,>100 µM
CC(=O)Nc1ccc(C(=O)N/N=C/c2ccc(O)cc2)cc1,MIC,-,-,-,-,>40 µg/mL
C/C=C(\C)c1cc(=O)c2c(C)cc3c(c2o1)C(=O)c1c(O)c([C@H]2C[C@](C)(N(C)C)[C@H](OC(C)=O)[C@H](C)O2)cc([C@H]2C[C@@H](N(C)C)[C@H](OC(C)=O)[C@@H](C)O2)c1C3=O,MIC bound,H37Rv,-,-,BACTEC,>12.5 µg/mL
NC(=O)NNC(N)=O,MIC,-,-,-,-,>200 µg/mL
CCCCOc1cc2oc3cc(O)c(CCC(C)C)c(O)c3c(=O)c2c(CCC(C)C)c1OC,MIC,H37Ra,-,-,resazurin,1.56 µg/mL
c1ccc(C(CNCCNCC23CC4CC(CC(C4)C2)C3)c2ccccc2)cc1,MIC,-,-,-,-,9.4 µM
C[C@H]1COc2c(N3CCN(C)CC3)c(F)cc3c(=O)c(C(=O)O)cn1c23,MIC,Clinical isolate BRF 14,INH resistant,-,resazurin,0.25 µg/mL
O=c1cc(-c2ccccc2Br)oc2ccccc12,inhibition,H37Rv,-,12.5 µg/mL,-,23%
Cc1ccc(NP2(Nc3ccc(C)cc3)=NP(Nc3ccc(C)cc3)(N3CC3)=NP(Nc3ccc(C)cc3)(N3CC3)=N2)cc1,MIC bound,H37Rv,-,-,BACTEC,≤128 µg/mL
NNC(=O)c1ccncc1,MIC50,18 strains (levofloxacin-resistant),-,-,-,25 µg/mL
O=c1nc(SCc2ccccc2F)c2[nH]cnc2[nH]1,MIC,H37Ra,-,-,-,8 µg/mL
COc1cc(CC2C(=O)OCC2C(=O)c2ccc3c(c2)OCO3)cc(OC)c1OC,inhibition,H37Rv,-,12.5 µg/mL,BACTEC,-8%
O=C(/C=C/c1ccccc1)c1cc(Cl)ccc1O,MIC,H37Rv,-,-,-,>12.5 µg/mL
CC(C)=CCCC(C)C1=C(O)C(=O)C(C)=CC1=O,MIC bound,H37Rv,-,-,BACTEC,≤128 µg/mL
O=c1cc(-c2ccccc2)oc2cc(Br)ccc12,inhibition,H37Rv,-,12.5 µg/mL,-,53%
COc1cc2c(c(OC)c1OC)CC1c3c(cc4c(c3-2)OCO4)CCN1C,inhibition,H37Rv,-,12.5 µg/mL,BACTEC,55%
Cc1cc(=O)c2c(O)c3c(O)cc(=O)c4c3c3c(cc(O)c1c23)C(C)(C)C=4O,MIC,Clinical isolate,-,-,resazurin,2 µg/mL
O=C(O)c1ccc2oc(-c3ccccc3)cc(=O)c2c1,MIC,H37Rv,-,-,-,>12.5 µg/mL
COc1cc(-c2nn3c(C(C)(C)C)nnc3s2)cc(OC)c1OC,MIC,Clinical isolate,-,-,resazurin,16 µg/mL
O=C(Nn1c(=O)c(=O)oc2ccccc21)C(F)(F)F,MIC bound,H37Rv,-,-,BACTEC,≤12.5 µg/mL
NNC(=O)c1ccncc1,MIC,Isolate P,-,-,-,0.125 µg/mL
NC(=O)c1cnccn1,MIC,DOL niacin-positive,-,-,-,32 µg/mL
CCCCCCCCCCCNCCNC1CCCCC1C,MIC,-,-,-,-,50 µM
Nc1cc2ncccc2c2ncccc12,MIC bound,H37Rv,-,-,BACTEC,>12.5 µg/mL
Clc1nc(Sc2ccc3ccccc3n2)c2[nH]cnc2n1.O,MIC90,H37Rv,-,-,-,>6.25 µg/mL
O=C1CCCCCCCCCCCCCCCO1,MIC,CS-R,-,-,-,>12.8 µg/mL
CCOC(=O)c1ccc2nc(-c3cncc(-c4ccc(F)cc4)c3)[nH]c2c1,MIC,H37Rv,-,-,resazurin / fluorescence,>100 µM
CC1=NN(C(=O)c2ccncc2)C(=O)C1N=Nc1ccc(S(=O)(=O)Nc2nccs2)cc1,inhibition,H37Rv,-,12.8 µg/mL,BACTEC,25%
O=C(N/N=C/c1ccc(O)cc1)c1ccccc1Cl,MIC,-,-,-,-,100 µg/mL
CCN(CC)CCOC(=O)Cc1cc(C)cc2c(=O)cc(-c3ccccc3)oc12,inhibition,H37Rv,-,12.5 µg/mL,BACTEC,-10%
CCOc1ccc(C(=O)N/N=C\C(O)C(O)C(O)C(O)CO)cc1,MIC,-,-,-,-,40 µg/mL
CC(C)=CC(=O)O[C@@H]1[C@H]2C(C)C(=O)O[C@H]2[C@@H](O)[C@H](C)[C@H]2C=CC(=O)[C@@]21C,MIC bound,H37Rv,-,-,BACTEC,>12.5 µg/mL
CCc1nc(N)nc(N)c1-c1ccc(Cl)cc1,EC50,H37Rv,-,-,resazurin / fluorescence,>100 µM